Compound potency records, mixed from different reports. Data source: NIAID ChemDB in PubChem.

All rows: tests in culture; species: HIV-1; read by: p24; measure: EC50

An empty or dashed field is not shown. ECn is the concentration giving n% inhibition of infection, replication or growth. Rows are shuffled and stem from different studies.

structure	cell line	mutations	strain	value
O=C1N(Cc2ccc(CO)cc2)[C@H](Cc2ccccc2)[C@H](O)[C@@H](O)[C@@H](Cc2ccccc2)N1Cc1ccc(CO)cc1	PBMC		IIIB	0.018 µM
Cc1cc(C)c(-n2nnnc2SCC(=O)Nc2ccccc2C(F)(F)F)c(C)c1	MT-4			<10 µM
S=C(NCCc1cccs1)Nc1ccc(Br)cn1	PBMC	RT-M41L T215Y	X267-2 Clinical isolate NRTI-resistant	0.0003 µM
Nc1nc(NC2CC2)c2ncn([C@H]3C=C[C@@H](CO)C3)c2n1	MT-2	RT-delta67 T69G		0.214 µM
O=c1[nH]cnc2c1ncn2[C@H]1CC[C@@H](CO)O1	MT-4	RT-K65R	HXB2D (RT-K65R)	22.1 µM
Cc1cn([C@H]2C[C@H](N=[N+]=[N-])[C@@H](CO)O2)c(=O)[nH]c1=O	PBMC	RT-K20R D67N K103N T215Y	X165-9 Clinical isolate ZDV-resistant	0.9 µM
CC(C)(C)NC(=O)[C@@H]1C[C@@H]2CCCC[C@@H]2CN1C[C@@H](O)[C@H](Cc1ccccc1)NC(=O)[C@H](CC(N)=O)NC(=O)c1ccc2ccccc2n1	MT-4	PR-D30N	NL4-3	<0.01 µM
O=C1N(Cc2ccc(CO)cc2)[C@H](Cc2ccccc2)[C@H](O)[C@@H](O)[C@@H](Cc2ccccc2)N1Cc1ccc(CO)cc1	MT-4	PR-L10R M46I L63P V82T I84V	NL4-3	<3 µM
Nc1ccn([C@H]2CC[C@@H](CO)O2)c(=O)n1	PBL		IIIB	0.003 µM
CCO/N=C(\c1ccc(Br)cc1)C1CCN(C2(C)CCN(C(=O)c3c(C)cc[n+]([O-])c3C)CC2)CC1	PBMC		ASM 80 R5 CLADE B	0.0048 µM
O=C(O)P(=O)(O)O	PBMC		7932 CLADE B CLADE B	4.93 µM
O=C(CSc1nnnn1-c1c(Cl)cccc1Cl)Nc1ccccc1Cl	MT-4			<10 µM
CC(C)CN(C[C@@H](O)[C@H](Cc1ccccc1)NC(=O)[C@H](CC(N)=O)NC(=O)c1ccc2ccccc2n1)C(=O)NC(C)(C)C	MT-4	PR-V82T	NL4-3	<0.1 µM
Cc1cc(C)c(-n2nnnc2SCC(=O)Nc2ccc(Cl)nc2Cl)c(C)c1	MT-4			<10 µM
O=c1[nH]cnc2c1ncn2[C@H]1CC[C@@H](CO)O1	MT-2	RT-delta67 K103N		1.04 µM
CC(C)(C)NC(=O)[C@@H]1CN(Cc2cccnc2)CCN1C[C@@H](O)C[C@@H](Cc1ccccc1)C(=O)N[C@H]1c2ccccc2C[C@H]1O	PBMC	RT-T69K K70G V75I F77L F116Y Q151M M184V	1617-1 NRTI resistant recombinant	0.0205 µM
Cc1cn([C@H]2C[C@H](N=[N+]=[N-])[C@@H](CO)O2)c(=O)[nH]c1=O	PBMC		6 clinical isolates AZT-resistant	<1.6 µM
COC(=O)[C@H](C)NP(=O)(OC[C@@H]1C=C[C@H](n2cc(C)c(=O)[nH]c2=O)O1)Oc1ccc(Br)cc1	PBMC	RT-K20R M41L D67N T69N K70R L210W T215Y	G890-1 NRTI resistant	0.006 µM
COC(=O)[C@H](C)NP(=O)(OC[C@@H]1C=C[C@H](n2cc(C)c(=O)[nH]c2=O)O1)Oc1ccc(Br)cc1	PBMC	RT-M41L T215Y	P798-1 Clinical isolate ZDV-resistant	0.0075 µM
CC(C)OC(=O)OCOP(=O)(CO[C@H](C)Cn1cnc2c(N)ncnc21)OCOC(=O)OC(C)C	MT-2	RT-L74V	74V (ddI- ddC-resistant RT L74V)	0.02 µM
Cc1ccc(-n2nnnc2SCC(=O)Nc2ccccc2[N+](=O)[O-])cc1	MT-4			<10 µM
Cc1cn([C@H]2C[C@H](N=[N+]=[N-])[C@@H](CO)O2)c(=O)[nH]c1=O	MM + M/M		ADA	0.03 µM
CCC[C@@]1(CCc2ccccc2)CC(O)=C([C@H](CC)c2cccc(NS(=O)(=O)c3ccc(C(F)(F)F)cn3)c2)C(=O)O1	PBMC		6 clinical isolates AZT-resistant	<0.04 µM

Repeating the final 3 entries:

| structure | cell line | mutations | strain | value |
|---|---|---|---|---|
| Cc1ccc(-n2nnnc2SCC(=O)Nc2ccccc2[N+](=O)[O-])cc1 | MT-4 |  |  | <10 µM |
| Cc1cn([C@H]2C[C@H](N=[N+]=[N-])[C@@H](CO)O2)c(=O)[nH]c1=O | MM + M/M |  | ADA | 0.03 µM |
| CCC[C@@]1(CCc2ccccc2)CC(O)=C([C@H](CC)c2cccc(NS(=O)(=O)c3ccc(C(F)(F)F)cn3)c2)C(=O)O1 | PBMC |  | 6 clinical isolates AZT-resistant | <0.04 µM |